Structures were worked out from names or drawings and are uncertain.
Target: HIV reverse transcriptase (Human immunodeficiency virus type 1 group M subtype B, UniProt P04585)
Test: HIV Reverse Transcriptase Assay (IC50)
Settings: assay of Example 67; 1 mM of ATP added to the reaction mixture
Description: Diluted solutions of stock solutions of compounds of Formula I in DMSO are prepared in assay buffer in Eppendorf tubes 16 h prior to their use in the biological assay, using a minimal supplementary volume of 75 μL of assay buffer in addition to the volume required in the assay. The samples are vortexed for 10 min at RT and incubated for 16 h at 4° C. The equilibrated solutions are centrifuged at 16 000 g for 5 min in a centrifuge equipped with an internal chiller, which is pre-equilibrated at 4° C., and the supernatant is collected. The portion of supernatant required for the serial dilutions in the biological assay is transferred to the compound dilution plate and a 75 μL portion of the remaining supernatant is transferred to a 1.4 mL tube (Micronic). A 25 μL volume of DMSO is promptly added and the sample is submitted for concentration determination by HPLC, along with the stock solution of the compound in DMSO as a standard for concentration determination analysis.
HIV Reverse Transcriptase Assay (IC50)
The assay used to measure inhibition of HIV reverse transcriptase is as described in WO 2006/034583, pages 52-53, incorporated herein by reference, except that 1 mM of ATP was added to the reaction mixture.

CNc1ccc(-c2nc(=O)n(CC(=O)N3CCCC3)c3c2oc2ncc(-c4cnn(C)c4)cc23)cn1
IC50: 70 nM
